A mixed list of measured activities; the numbers were collected in NIAID ChemDB.

Common to all: growth or infection tests

ECn: concentration that inhibits the pathogen or its effect by n%. Percent inhibition refers to the dose given; in toxicity tests it is the harm to the cells. Fold resistance: result on the changed form divided by that on wild type. MIC50, MIC90 and the like: level of inhibition, or share of isolates inhibited. Neighbouring rows are from separate reports. Blank or dashed fields: not listed here.

| structure | organism | read by | cells | strain | tested at | changes | read-out | result |
|---|---|---|---|---|---|---|---|---|
| CC(C)(CO)C(=O)SCCOP(=O)(NCc1ccccc1)OC[C@H]1O[C@@H](n2cnc3c(=O)[nH]c(N)nc32)[C@](C)(O)[C@@H]1O | Hepatitis C virus | replicon | Replicon cells | GT1b |  | L31M | fold resistance | 0.91 |
| NC(=O)c1ncn([C@@H]2O[C@H](CO)[C@@H](O)[C@H]2O)n1 | Banzi virus | cytopathic effect | VERO | H336 |  |  | EC50 | 60 µg/mL |
| CCO/N=C/c1ccc(OCCC2CCN(c3ccc(C)nn3)CC2)cc1 | Rhinovirus | neutral red | KB | 5986 (ICAM-1 receptor group 18) |  |  | EC50 | 0.652 µM |
| CC[C@@]1(O)C(=O)OCc2c1cc1n(c2=O)Cc2cc3cc4c(cc3nc2-1)OCO4 | Saccharomyces cerevisiae |  |  | Mutant ΔERG6 |  |  | MIC | >100 µg/mL |
| O=C1N(Cc2ccc(CO)cc2)[C@H](Cc2ccccc2)[C@H](O)[C@@H](O)[C@@H](Cc2ccccc2)N1Cc1ccc(CO)cc1 | HIV-1 | p24 | PBMC | HXB2 | 0.14 µM |  | inhibition | 90% |
| COc1cc(C[C@H](C)[C@H](C)Cc2ccc(O)c(O)c2)ccc1O | Candida albicans | broth dilution |  | CCC 126-2000 |  |  | MIC100 | 62.5 µg/mL |
| Nc1nc2c(ncn2COC(CO)CO)c(=O)[nH]1 | Varicella zoster virus | plaque count | HEL | PFA-resistant/A |  |  | EC50 | 0.33 µg/mL |
| CC[C@H]1OC(=O)[C@H](C)[C@@H](O[C@H]2C[C@@](C)(OC)[C@@H](O)[C@H](C)O2)[C@H](C)[C@@H](O[C@@H]2O[C@H](C)C[C@H](N(C)C)[C@H]2O)[C@](C)(OC)C[C@@H](C)C(=O)[C@H](C)[C@@H](O)[C@]1(C)O | Mycobacterium abscessus | broth dilution |  | X88 |  |  | MIC | 2 µg/mL |
| O=c1[nH]c(=O)n([C@@H]2O[C@H](CO)[C@@H](O)[C@@H]2O)cc1/C=C/Br | Varicella zoster virus | plaque count | HEL | PMEA-resistant |  |  | EC50 | 0.00011 µg/mL |
| CCOc1cc(Cc2cnc(N)nc2N)cc(OCC)c1-n1cccc1 | Mycobacterium ulcerans |  |  | ATCC 19423 |  |  | MIC | 0.5 µg/mL |
| CC[C@@]1(OC(=O)CN)C(=O)OCc2c1cc1n(c2=O)Cc2cc3cc(O)ccc3nc2-1 | Saccharomyces cerevisiae |  |  | Mutant ΔERG6 |  |  | MIC | >100 µg/mL |
| NC12CC3CC(CC(C3)C1)C2 | Influenza A virus | plaque count | MDCK | H1N1 PR/8/34 |  |  | EC50 | >50 µg/mL |
| CC[C@@]1(O)C(=O)OCc2c1cc1n(c2=O)Cc2cc3c(N)c4c(cc3nc2-1)OCO4 | Saccharomyces cerevisiae |  |  | Mutant ΔERG6 ΔTOP1 |  |  | MIC | >100 µg/mL |
| Nc1ncnc2c1ncn2C[C@@H](CO)OCP(=O)(O)O | Varicella zoster virus | plaque count | HEL | BVaraU-resistant |  |  | EC50 | 0.0034 µg/mL |
| CN(C)c1cc(NC(=O)CNC(C)(C)C)c(O)c2c1C[C@H]1C[C@H]3[C@H](N(C)C)C(=O)C(C(N)=O)=C(O)[C@@]3(O)C(=O)C1=C2O | Mycobacterium abscessus | broth dilution |  | V139 |  |  | MIC | 2 µg/mL |
| Nc1ccc(S(=O)(=O)Nc2ncccn2)cc1 | Toxoplasma gondii |  |  |  |  |  | EC50 | >1 µg/mL |
| Nc1ccn(C[C@@H](CO)OCP(=O)(O)O)c(=O)n1 | Adenovirus | virus yield |  | adenoid 6 (TYPE 2) |  |  | EC90 | 0.2 µg/mL |
| CCCN(CCC)c1c([N+](=O)[O-])cc(C(F)(F)F)cc1[N+](=O)[O-] | Toxoplasma gondii |  |  | Trifluralin-resistant |  |  | EC50 | 3 µM |
| COc1cc2c(cc1OC)C1OCCCN1c1c-2ccc2cc3c(cc12)OCO3 | Saccharomyces cerevisiae |  |  | Mutant ΔERG6 |  |  | MIC | 25 µg/mL |
| O=C(O)P(=O)(O)O | Varicella zoster virus | plaque count | HEL | PMEA-resistant |  |  | EC50 | 70.3 µg/mL |
| Nc1ncnc2c1ncn2C[C@H](CO)OCP(=O)(O)O | Adenovirus | cytopathic effect |  | adenoid 6 (TYPE 2) |  |  | EC50 | 3 µg/mL |
| NC1CCN(c2nc3c(cc2F)c(=O)c(C(=O)O)cn3-c2ccc(F)cc2F)C1 | Haemophilus influenzae |  |  | 38 strains (ampicillin-susceptible) |  |  | MIC50 | ≤0.004 µg/mL |
| NC(=O)c1ncn([C@@H]2O[C@H](CO)[C@@H](O)[C@H]2O)n1 | Measles virus | neutral red | CV-1 | BIL |  |  | EC50 | 100 µg/mL |
| CCc1c2c(nc3ccc(O)cc13)-c1cc3c(c(=O)n1C2)COC(=O)[C@]3(O)CC | Saccharomyces cerevisiae |  |  | JHY6-1C |  |  | MIC | >100 µg/mL |
| C#CC[C@@H](C(=O)N[C@H](/C=C/C(=O)OCC)C[C@@H]1CCNC1=O)n1cccc(NC(=O)c2cc(C)on2)c1=O | Rhinovirus | cytopathic effect / XTT | H1-HELA | Serotype 28 | 0.335 µM |  | inhibition | 90% |
| Nc1ncnc2c1ncn2[C@H]1C=C[C@H](O)[C@@H]1O | Measles virus | cytopathic effect | CV-1 |  |  |  | EC50 | 1 µg/mL |
| Nc1nc2c(ncn2CCOCP(=O)(O)O)c(=O)[nH]1 | Parainfluenza virus | neutral red |  | 14702 (TYPE 3) |  |  | EC50 | 10 µg/mL |
| Nc1ccc(S(=O)(=O)c2ccc(N)cc2)cc1 | Mycobacterium ulcerans |  |  | Isolate 5155 |  |  | MBC | 8 µg/mL |
| CC(=O)NC[C@H]1CN(c2ccc(N3CCOCC3)c(F)c2)C(=O)O1 | Staphylococcus aureus |  |  | 24 strains (ofloxacin-susceptible) |  |  | MIC90 | 2 µg/mL |
| O=c1cnn([C@@H]2O[C@H](CO)[C@@H](O)[C@H]2O)c(=O)[nH]1 | Dengue virus | cytopathic effect | VERO | TYPE 4 (YUNH) |  |  | EC50 | 0.1 µg/mL |
| CCCCCCCCCC(=O)N[C@H]1[C@H](Oc2c3cc4cc2Oc2ccc(cc2Cl)[C@@H](O[C@@H]2O[C@H](CO)[C@@H](O)[C@H](O)[C@H]2NC(C)=O)[C@@H]2NC(=O)[C@H](NC(=O)[C@@H]4NC(=O)[C@H]4NC(=O)[C@@H](Cc5ccc(c(Cl)c5)O3)NC(=O)[C@H](N)c3ccc(O)c(c3)Oc3cc(O)cc4c3)c3ccc(O)c(c3)-c3c(O[C@H]4O[C@H](CO)[C@@H](O)[C@H](O)[C@@H]4O)cc(O)cc3[C@H](C(=O)O)NC2=O)O[C@H](CO)[C@@H](O)[C@@H]1O | Staphylococcus aureus |  |  | 24 strains (ofloxacin-susceptible) |  |  | MIC50 | 0.5 µg/mL |
| CC[C@@]1(O)C(=O)OCc2c1cc1n(c2=O)Cc2c-1nc1cc3c(cc1c2C)OCO3 | Saccharomyces cerevisiae |  |  | JHY6-1C |  |  | MIC | >100 µg/mL |
| C=CCc1ccc(O)c(-c2ccc(O)c(CC=C)c2)c1 | Candida albicans | broth dilution |  | YL 366 |  |  | MIC | 64 µg/mL |
| Cc1c(N2C[C@@H](F)[C@@H](C3(N)CC3)C2)c(F)c(N)c2c(=O)c(C(=O)O)cn([C@@H]3C[C@@H]3F)c12 | Staphylococcus aureus |  |  | 25 strains (methicillin-susceptible) |  |  | MIC90 | 0.03 µg/mL |

For reference, 4 entries again:

structure	organism	read by	cells	strain	tested at	changes	read-out	result
C#CC[C@@H](C(=O)N[C@H](/C=C/C(=O)OCC)C[C@@H]1CCNC1=O)n1cccc(NC(=O)c2cc(C)on2)c1=O	Rhinovirus	cytopathic effect / XTT	H1-HELA	Serotype 28	0.335 µM		inhibition	90%
CCCN(CCC)c1c([N+](=O)[O-])cc(C(F)(F)F)cc1[N+](=O)[O-]	Toxoplasma gondii			Trifluralin-resistant			EC50	3 µM
NC12CC3CC(CC(C3)C1)C2	Influenza A virus	plaque count	MDCK	H1N1 PR/8/34			EC50	>50 µg/mL
Nc1ncnc2c1ncn2C[C@@H](CO)OCP(=O)(O)O	Varicella zoster virus	plaque count	HEL	BVaraU-resistant			EC50	0.0034 µg/mL